Reference: patent publication US9744186B2 (priority 2012, dated 2017)

Test system: HCV luciferase replicon
Test: HCV luciferase replicon inhibition in the presence of carboxylesterase inhibitors (benzil or BNPP)
Assay type: cell-based, hepatitis C virus (HCV)
Procedure: The cells were counted using a hemocytometer, and then diluted to 1×10^5 cells/mL in DMEM with 10% FBS and […] G415. 100 μL of the cells (10,000 cells) were plated per well in a white-walled 96-well plate according to the template on the following page.
Treating the cells: Media (DMEM with 2% FBS) was pre-warmed to 37° C. Stock solutions (100 mM) of Benzil and BNPP were diluted in DMEM with 2% FBS to 100 μM. […] The cells were returned to 37° C. for 1 h. […] The 1.0 mM dilution of GCB or GTB in DMEM+2% FBS+100 μM Benzil or BNPP was serially diluted in DMEM with 2% FBS, 0.5% DMSO, 100 μM benzil or BNPP. At the end of the 1 h incubation, the 96-well plate with cells plated as above was removed from the 37° C. incubator, and 50 μL media diluted test drug and 100 μM of benzil or BNPP was added to each well. The plates were gently rocked to mix the media. Also included were conditions with inhibitors alone (DMEM+2% FBS+0.5% DMSO+100 μM benzil or BNPP) and media alone (DMEM+2% FBS+0.5% DMSO) in triplicate. The plates were returned to 37° C. for 48 h.

Compound: COc1cc(C(=O)Nc2ccn([C@@H]3O[C@H](CO)[C@@H](O)C3(F)F)c(=O)n2)cc(OC)c1OC [GTB, N^4-(3,4,5-Trimethoxybenzoyl)gemcitabine]
- Fold-change in IC50 +BNPP (100 μM BNPP): 1.6
- Fold-change in IC50 +Benzil (100 μM benzil): 2.5
